Results as given in paper PMC3280542, “Differential Expression of the Demosponge (Suberites domuncula) Carotenoid Oxygenases in Response to Light: Protection Mechanism Against the Self-Produced Toxic Protein (Suberitine)” (Marine Drugs, 2012).

System: Suberitine
Conditions: Suberitine 3 µg/mL (0.4 µM) preincubated with retinoid 15 min at 37 °C; indirect erythrocyte read-out

| Compound | % reduction of hemagglutination activity at the same ratio [%] |
| --- | --- |
| CC1=C(/C=C/C(C)=C/C=C/C(C)=C/C(=O)O)C(C)(C)CCC1 [all-E-retinoic acid] | 19 |
| CC1=C(/C=C/C(C)=C/C=C/C(C)=C/CO)C(C)(C)CCC1 [all-E-retinol] | 34 |
| CC1=C(/C=C/C(C)=C/C=C/C(C)=C/C=C/C=C(C)/C=C/C=C(C)/C=C/C2=C(C)CCCC2(C)C)C(C)(C)CCC1 [β-carotene] | 27 |
